In the supplement of paper PMC9931576:
Human monoclonal antibodies against the spike receptor-binding domain (heavy:light variable regions). IC50 against pseudoviruses bearing the spike of naturally observed variants; lower = stronger; >10 µg/ml means not reached at the top dose. No active / inactive call. The stated detection limit is 0.0005 µg/ml; values near or below 0.001 µg/ml lie at the floor of the assay.

B1: BD55-4392 (protein)
chain 1: QVHLVQSGAEVKKSGASVKVSCKASAYIFTSYGISWVRQAPGQGLEWMGWISTSTGYTSYSQNLQGRVTMSTDTSTSTAYMELRSLTSDDTAVYYCARESGYSGYDSGGYYYYGMDVWGQGTTVTVSS
chain 2: QSALTQPASVSGSPGQSITISCTGSSSEAVTYNLVSWYQQHPGKAPKLIIYEGSERPSGVSSRFSGSQSGDTASLTISGLQAEDGADYYCCSYAPSAALKGVFGGGTKLTVL
B2: BD55-4394 (protein)
chain 1: EVQLVESGGGLVQPGGSLRLSCAAAGFTFSSYAMHWVRQAPGKGLEYVSSITSDGGGKFYANSAEGRFTISRDNSKNTLYLQMGSLRAEDMALYYCARESGNIVTTTLDFWGQGTLVTVSS
chain 2: DIQMTQSPSSLSASVGDRVTITCRASQIISRYLNWYQQKPGKGPKLLIYGASSLQSGVPARFSGSGSGTDFTLTISSLQPEDFATYYCQQSYSSPLYTFGQGTKLEIK
B3: BD55-4418 (protein)
chain 1: QVQLVESGGGVVQPGSSLRLSCAASGFTFSNYDIHWVRQAPGKGLEWVAVISRDGSSKFYADSVQGRVGISRDNSKTTLHLSSLREEDTAVYYCAKEQTYDTMTGLYYFDSWGQGTLVTVSS
chain 2: DIQMTQSPSSLSASVGDRVTITCRASQSIGRHLNWYQQKPGKAPKPLIYAASNLQGGVPSRFSGSGAGTHFTLTISSLQPEDFATYYCQQNYNTPQITFGPGTKVDI
B4: BD55-4464 (protein)
chain 1: EVQLVESGGGVVQPGGSRRLSCVASGFTFTSYDIHWVRQGTGKSLEWVSTIDTAGDTYYADSAKGRFTISRENAKKSVYLQMSSLRAGDTAVYFCVRAYPFYDMLTGDTYHYYGLDVWGQGTTVIVSS
chain 2: EIVLTQSPGTLSLSPGERATLSCRASQSVSTNYLAWFQQKPGQAPRLLIYGASSRATGIPDRFSGSGSGTDFTLTISFLEPEDSAVYYCQQYGRSPPLTFGGGTKVEIK
B5: BD55-4707 (protein)
chain 1: EVQLVQSGVEVKKPGESLKISCKGSGYTYTTQWIGWVRQMPGKGLEWMGIIYPGDSETIYSPSFQGQVTISADKSISTAYLQWNSLKASDTAMYYCAASGGLRWGLEYWGQGTLVTVSS
chain 2: DIVMTQSPESLAVSLGERATINCKSSQSVLYSSNNKNSLAWYQQKPGQPPKLLIYWASTRESGVPDRFSGSGSGTNFTLTISSLQAEDVAVYYCQQYYNTWYTFGQGTKLEIK
B6: BD55-4804 (protein)
chain 1: QVQLVQSGSELKKPGASVKVSCKASGYTFTSYAMNWVRQAPGQGLEWMGWINTDTGNPTFAQGFTGRFVFSLDTSVSTAYLQISTLKAEDTAVYYCARADRDYFGYEAFDIWGQGTVVTVSS
chain 2: DIQMTQSPSSLSASVGDRVTITCRASQSISNYVNWYQQKPGKAPKNLIYAASSLQSGVPSRFSGSGSGTDFTLTISSLQPEDFATYYCQQTYSTHLLSFGGGTKVEIK
B7: BD55-1028 (protein)
chain 1: EVQLVESGGGLVQPGESLRLSCVASGFSFSSYDMHWVRQDTKKGLEWVAAIGTSGDIYYADSVKGRFIISREAAKASLYLQMNSLRAGDSARYYCTRGDSYPSGTYSGTGYYFDSWGQGTLVAVSS
chain 2: DIQLTQSQPSLSASVGDRVTITCRASQSIGRFLNWYQQKAGKAPNLLIYATSNLQSGVPSRFSATGSGTDFTLTISSLQPEDFATYYCQQSYSMPPWTFGQGTKLEIK
B8: BD55-5001 (protein)
chain 1: QVQLVQSGSELKKPGASVKVSCKTSGYTFSTYAINWVRQAPGQGLEWMGWINTDTGIPTYAQGFTGRFVLSLDTSVGTAYLQISSLKAEDTAVYYCARADSGSYSWWFDPWGQGTLVTVSS
chain 2: VIWMTQSPSSLSASIGDRVTISCRLSYGISSELVWYKQKPGKAPELLIYAASILQSGVPSRFSGTGSGTDFTLTISGLQSEDFATYYCQQYYSFPLTFGQGTKVEIK
B9: BD55-5166 (protein)
chain 1: EVQLVESGGGLVQPGRSLRLSCAVSGLTFDDYAMHWVRQAPGKGLEWVSGISWNGGDIVYADSVKGRFAVSRDNAKNSLYLQMNSLRPEDTAVYYCTKDRLGEIFPCFDQWGQGTLVTVSS
chain 2: QSALTQPASVSGSPGQSITISCTGTSNDVGRSNLVSWYQQHPGKAPKLMIFEVSARPSGVSYRFSGSKSGNTASLTISGLRAEDEADYYCCSDARTGTFSVLFGGGTKLTVL
B10: BD55-5171 (protein)
chain 1: QVQLVQSGSGLKKPGASVKVSCRTSGYSFTDHTINWVRQAPGQGLEWMGWINTATGIPTYAQGFTGRFVFSLDTSVGTAFLLISSLQAADTAVYYCARAASWDYCGNNNCFGDYWGQGTLVTVSS
chain 2: ENVLTQSPGTLSLSVGERVTLSCRASHSVGSSFLAWYQQKPGQAPRLLIYGASNRATGIPDRISGRGSGTDFSLTISRLEPEDFAVYYCHQYGSSPFTFGQGTKVEIK
B11: BD55-5189 (protein)
chain 1: QVQLVQSGAEVKKPGASVKVSCKASGYSFTTFYIHWLRQAPGQGLEWMGIVNVAGDTTDYAQNFQGRVTMTRDTSTGTVYMELSSLRSEDTAIYYCASPREKGYSGYDFWETTFDIWGQGTMVTVS
chain 2: EVVMTQSPATLSVSPGERATLSCRASQSISSNLAWYQQKPGQAPRLLIYGASTRATGIPARFSGSGSGSQFTLTISSLQSEDFVVYYCQQYNNWPPIFGQGTKLEIK
B12: BD55-5200 (protein)
chain 1: QVQLQESDPGLVKPSQTLSLTCTVSGGSISGGSNFWNWIRQPAGKGLEWIGRIYTSGNTDYNPSLKSRVTISVDTSKNQFSLRLSSVTAADTAVYYCARDRLSGKVEVAINHFSYGLDVWGPGTTVTVSS
chain 2: SHELTQPPSVSVSPGQTARITCSGDALPKQYAYWYQQKSGQAPVLVIYKDSERPSGIPERFSGSSSGRTVTLTISGVQAEDEADYYCQSADSSNIYLAFGGGTKVTVL

molecular target: SARS-CoV-2 Omicron BA.1 spike pseudovirus; assay: pseudovirus neutralization IC50; higher = weaker neutralization
Protocol: (§1)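 Single-round VSV luciferase pseudovirus mixed with antibody dilutions for 1 h and put on Huh-7 cells for about a day; IC50 from the dose curve.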

Row | Binder | pseudovirus neutralization IC50 [µg/mL]
1 | B1 | > 10
2 | B2 | > 10
3 | B3 | > 10
4 | B4 | > 10
5 | B5 | > 10
6 | B6 | > 10
7 | B7 | > 10
8 | B8 | > 10
9 | B9 | > 10
10 | B10 | > 10
11 | B11 | > 10
12 | B12 | > 10

molecular target: SARS-CoV-2 Omicron BA.2 spike pseudovirus; assay: as above
Protocol: as §1

Row | Binder | pseudovirus neutralization IC50 [µg/mL]
13 | B1 | > 10
14 | B2 | > 10
15 | B3 | > 10
16 | B4 | > 10
17 | B5 | > 10
18 | B6 | > 10
19 | B7 | > 10
20 | B8 | > 10
21 | B9 | > 10
22 | B10 | > 10
23 | B11 | > 10
24 | B12 | > 10

molecular target: SARS-CoV-2 Omicron BA.2.75 spike pseudovirus; assay: as above
Protocol: as §1

Row | Binder | pseudovirus neutralization IC50 [µg/mL]
25 | B1 | > 10
26 | B2 | > 10
27 | B3 | > 10
28 | B4 | > 10
29 | B5 | > 10
30 | B6 | > 10
31 | B7 | > 10
32 | B8 | > 10
33 | B9 | > 10
34 | B10 | > 10
35 | B11 | > 10
36 | B12 | > 10

molecular target: SARS-CoV-2 Omicron BA.5 spike pseudovirus; assay: as above
Protocol: as §1

Row | Binder | pseudovirus neutralization IC50 [µg/mL]
37 | B1 | > 10
38 | B2 | > 10
39 | B3 | > 10
40 | B4 | > 10
41 | B5 | > 10
42 | B6 | > 10
43 | B7 | > 10
44 | B8 | > 10
45 | B9 | > 10
46 | B10 | > 10
47 | B11 | > 10
48 | B12 | > 10

molecular target: SARS-CoV-2 Omicron BQ.1.1 spike pseudovirus; assay: as above
Protocol: as §1

Row | Binder | pseudovirus neutralization IC50 [µg/mL]
49 | B1 | > 10
50 | B2 | > 10
51 | B3 | > 10
52 | B4 | > 10
53 | B5 | > 10
54 | B6 | > 10
55 | B7 | > 10
56 | B8 | > 10
57 | B9 | > 10
58 | B10 | > 10
59 | B11 | > 10
60 | B12 | > 10

molecular target: SARS-CoV-2 Omicron XBB spike pseudovirus; assay: as above
Protocol: as §1

Row | Binder | pseudovirus neutralization IC50 [µg/mL]
61 | B1 | > 10
62 | B2 | > 10
63 | B3 | > 10
64 | B4 | > 10
65 | B5 | > 10
66 | B6 | > 10
67 | B7 | > 10
68 | B8 | > 10
69 | B9 | > 10
70 | B10 | > 10
71 | B11 | > 10
72 | B12 | > 10

molecular target: SARS-CoV-2 early D614G spike pseudovirus; assay: as above
Protocol: as §1

Row | Binder | pseudovirus neutralization IC50 [µg/mL]
73 | B1 | > 10
74 | B2 | > 10
75 | B3 | 2.47
76 | B4 | 3.32
77 | B5 | > 10
78 | B6 | > 10
79 | B7 | > 10
80 | B8 | 0.00677
81 | B9 | > 10
82 | B10 | 0.00201
83 | B11 | 0.00752
84 | B12 | 0.185
